Measured values as given in PMC3295573, “Structural Insights into a Unique Legionella pneumophila Effector LidA Recognizing Both GDP and GTP Bound Rab1 in Their Active State” (2012).

Molecular target: LidA(224-559) (Legionella pneumophila strain Corby)
Assay: crystal structure

Rab1(S25N; 1-176) (from UniProt P62820 1-176) (domain or fragment)
stoichiometry N: 1
